Reference: US9274101B2 (BIOLOG, Inc., priority 2001, dated 2016)

System: ten strains of E. coli
Experiment: Phenotype analysis (carbon source utilization) in ES MICROPLATE testing plates; further: key: +: indicates that the organism tested was capable of utilizing the carbon source listed; −: indicates that the organism tested was not capable of utilizing the carbon source listed; indicates weak positive reactions
Assay type: cell-based, Escherichia coli
Conditions: 24 hours
[1] = E. coli strain 6320, W3110, 35° C.
[2] = E. coli strain 6321, MG1655, 35° C.
[3] = E. coli strain 6322, EMG2 (K12), 35° C.
[4] = E. coli strain 11547, O157:H7, 35° C.
[5] = E. coli strain 13671, O157:H? gur+, 35° C.
[6] = E. coli strain 13673, O157:H?, 35° C.
[7] = E. coli strain 13675, O157:H?, 35° C.
[8] = E. coli strain 14443, MG1655 (FB426), 35° C.
[9] = E. coli strain 14444, MG1655 xylA, 35° C.
[10] = E. coli strain 14445, MG1655 himA, 35° C.

Substance | carbon source utilization [1] | carbon source utilization [2] | carbon source utilization [3] | carbon source utilization [4] | carbon source utilization [5] | carbon source utilization [6] | carbon source utilization [7] | carbon source utilization [8] | carbon source utilization [9] | carbon source utilization [10]
Acetoactetic acid | w | − | − | − | − | − | − | − | − | −
M-inositol | − | − | − | − | − | − | − | − | − | −
M-tartaric acid | − | − | − | w | + | − | − | − | − | −
Tween-40 | w | w | w | w | w | w | w | − | − | −
α-hydroxy-glutaric acid γ-lactone | − | w | − | w | − | − | w | − | − | −
